Results of unrelated studies side by side (data: NIAID ChemDB).

Common to all: host cell toxicity; cell line: H9; endpoint: CC50

An empty or dashed field is not shown. Lines come from different laboratories, so protocols vary. CCn is the concentration with n% toxicity to the cells.

structure	read by	value
CC(C)C(NC(=O)C[C@@H]1O[C@@H]1[C@H](Cc1ccccc1)NC(=O)[C@@H](NC(=O)c1cc(=O)c2ccccc2o1)C(C)(C)S(C)(=O)=O)C(C)C		>100 µM
C=C(C)[C@@H]1CC[C@]2(C(=O)O)CC[C@]3(C)[C@H](CC[C@@H]4[C@@]5(C)CC[C@H](OC(=O)CC(C)(C)C(=O)O)C(C)(C)[C@@H]5CC[C@]43C)[C@@H]12		7 µM
CCOC(=O)c1cc(C(=O)c2ccc(O)cc2)n2ccc(C(=O)NCc3ccccn3)cc12	MTT	150 µM
C[C@H]1[C@H](C)CC[C@]2(C(=O)O)CC[C@]3(C)C(=CC[C@@H]4[C@@]5(C)CC[C@H](OC(=O)CC(C)(C)C(=O)O)C(C)(C)[C@@H]5CC[C@]43C)[C@H]12		49.5 µM
COc1cc(CO)c(-c2c(CO)cc(OC)c(OC)c2OC)c(OC)c1OC		>250 µM
O=S(=O)(Nc1cccc2cccnc12)c1ccc(Cl)cc1Cl	ATP	0.47 µM
CC(C)[C@H](Cc1ccccc1)NC(=O)C[C@@H]1O[C@@H]1[C@H](Cc1ccccc1)NC(=O)[C@@H](NC(=O)OCc1ccccc1)C(C)(C)S(C)(=O)=O		>100 µM
COc1c(OCc2ccccc2)c(OCc2ccccc2)cc(C=O)c1-c1c(C=O)cc(OCc2ccccc2)c(OCc2ccccc2)c1OC		4 µM
Nc1nc2c(ncn2[C@@H]2O[C@H](CO)[C@@H](O)[C@H]2O)c(=O)o1		>30 µg/mL
O=C(O)C1=C[C@@H](O)[C@@H](O)[C@H](OC(=O)c2cc(O)c(O)c(OC(=O)c3cc(O)c(O)c(O)c3)c2)C1		40 µM
CC(C)CC(=O)O[C@H]1CC[C@]2(C)[C@H]3CC=C4[C@@H]5[C@@H](C)[C@H](C)CC[C@]5(C(=O)O)CC[C@@]4(C)[C@]3(C)CC[C@H]2C1(C)C		>18.5 µM
CCOC(=O)c1cc(C(=O)c2ccco2)n2ccc(C(=O)NCc3ccccn3)cc12	MTT	89.7 µM
CC(=O)OC1C(N=[N+]=[N-])c2c(ccc3ccc(=O)oc23)OC1(C)C		115.9 µM
COC(=O)c1cc(OC)c(OC)c(OC)c1-c1c(C(=O)OC)cc(OC)c(OC)c1OC		>200 µM
C=C(C)[C@@H]1CC[C@]2(C(=O)O)CC[C@]3(C)[C@H](CC[C@@H]4[C@@]5(C)CC[C@H](O)C(C)(C)[C@@H]5CC[C@]43C)[C@@H]12		12.9 µM
O=[N+]([O-])c1ccc(S(=O)(=O)Nc2cccc3cccnc23)cc1	ATP	>20 µM
Cc1cn([C@H]2C[C@H](F)[C@@H](CO)O2)c(=O)[nH]c1=O		5.7 µM
CCOC(=O)c1cc(C(=O)c2ccc(F)cc2)n2ccc(C(=O)NCc3ccccn3)cc12	MTT	81.6 µM
CC1CCC(C(C)C)C(OC(=O)OC2c3c(ccc4ccc(=O)oc34)OC(C)(C)C2OC(=O)OC2CC(C)CCC2C(C)C)C1		33.06 µM
Nc1nc2c(ncn2[C@H]2C=C[C@@H](CO)O2)c(=O)o1		>30 µg/mL
CC(C)[C@H](Cc1ccccc1)NC(=O)C[C@@H]1O[C@@H]1[C@H](Cc1ccccc1)NC(=O)[C@@H](NC(=O)c1ccc2ccccc2n1)C(C)(C)S(C)(=O)=O		>100 µM
O=S(=O)(Nc1ncnc2nc[nH]c12)c1ccc(F)cc1F	ATP	>20 µM
CC(C)[C@@H](NC(=O)C[C@@H]1O[C@@H]1[C@H](Cc1ccccc1)NC(=O)[C@@H](NC(=O)c1ccc2ccccc2n1)C(C)(C)S(C)(=O)=O)c1ccccc1		>100 µM
O=C1OCC2OC(=O)c3cc(O)c(O)c(O)c3-c3c(O)c(O)c(O)c4c3C(=O)OC(C2OC(=O)c2cc(O)c(O)c(O)c2-c2c1cc(O)c(O)c2O)C1OC(=O)c2c-4c(O)c(O)c(O)c2[C@H]1O		15 µM
C=C(C)[C@@H]1CC[C@]2(C(=O)O)CC[C@]3(C)[C@H](CC[C@@H]4[C@@]5(C)CC[C@H](OC(=O)COCC(=O)O)C(C)(C)[C@@H]5CC[C@]43C)[C@@H]12		11.7 µM
CC(=O)N[C@H](C(=O)N[C@@H](Cc1ccccc1)[C@H]1O[C@H]1CC(=O)N[C@@H](Cc1ccccc1)C(C)C)C(C)(C)S(C)(=O)=O		>100 µM
CC(C)(C)CC(=O)O[C@@H]1c2c(ccc3ccc(=O)oc23)OC(C)(C)[C@@H]1OC(=O)CC(C)(C)C		43.6 µM
O=C(Nc1cccc2cccnc12)c1ccc(F)cc1F	ATP	48 µM
CCOC(=O)c1cc(C(=O)c2ccc([N+](=O)[O-])cc2)n2ccc(C(=O)NCc3ccccn3)cc12	MTT	99.4 µM
OCc1cc(OCc2ccccc2)c(OCc2ccccc2)c(O)c1-c1c(CO)cc(OCc2ccccc2)c(OCc2ccccc2)c1O		13 µM
CC1(C)Oc2ccc3ccc(=O)oc3c2[C@@H](OC(=O)c2cccc(Cl)c2)[C@@H]1OC1CCCCO1		83 µM
CC(C)[C@@H]1CC[C@]2(C(=O)O)CC[C@]3(C)[C@H](CC[C@@H]4[C@@]5(C)CC[C@H](OC(=O)COCC(=O)O)C(C)(C)[C@@H]5CC[C@]43C)[C@@H]12		13.1 µM
CC(C)[C@H](Cc1ccccc1)NC(=O)C[C@@H]1O[C@@H]1[C@H](Cc1ccccc1)NC(=O)[C@@H](NC(=O)COc1cccc2cnccc12)C(C)(C)S(C)(=O)=O		>100 µM
Cc1ccc(S(=O)(=O)Nc2cccc3cccnc23)cc1	ATP	>20 µM
CCOC(=O)c1cc(C(=O)c2ccccc2)n2ccc(C(=O)N[C@@H](C(=O)OC)c3ccccc3)cc12	MTT	229 µM
CC(C)=CC(=O)OC1c2c(ccc3ccc(=O)oc23)OC(C)(C)C1OC(=O)C=C(C)C		16.45 µM
N.O=S(=O)(NCc1ccccc1)c1ccc(F)cc1F	ATP	>20 µM
CC(C)[C@H](Cc1ccccc1)NC(=O)C[C@@H]1O[C@@H]1[C@H](Cc1ccccc1)NC(=O)[C@@H](NC(=O)OCc1ccncc1)C(C)(C)S(C)(=O)=O		>100 µM
O=C(O[C@@H]1[C@H](c2c(O)cc(O)c3c2O[C@H](c2ccc(O)c(O)c2)[C@H](OC(=O)c2cc(O)c(O)c(O)c2)C3)c2c(O)cc(O)c([C@H]3c4c(O)cc(O)cc4O[C@H](c4ccc(O)c(O)c4)[C@@H]3OC(=O)c3cc(O)c(O)c(O)c3)c2O[C@@H]1c1ccc(O)c(O)c1)c1cc(O)c(O)c(O)c1		>25 µM
CCOC(=O)c1cc(C(=O)c2ccc(C(F)(F)F)cc2)n2ccc(C(=O)NCc3ccccn3)cc12	MTT	349.9 µM
Nc1nc2c(ncn2[C@H]2C[C@H](O)[C@@H](CO)O2)c(=O)o1		>30 µg/mL
Cc1cn([C@H]2C[C@H](N=[N+]=[N-])[C@@H](CO)O2)c(=O)[nH]c1=O		1871 µM
O=C1OC2C(COC(=O)c3cc(O)c(O)c(O)c3)OC(OC(=O)c3cc(O)c(O)c(O)c3)C(OC(=O)c3cc(O)c(O)c4c3[C@@H]3C1=CC(=O)C(O)(O)C3(O)O4)C2OC(=O)c1cc(O)c(O)c(O)c1		40 µM
CC(C)[C@@H](NC(=O)C[C@@H]1O[C@@H]1[C@H](Cc1ccccc1)NC(=O)[C@@H](NC(=O)OCc1ccncc1)C(C)(C)S(C)(=O)=O)c1ccccc1		>100 µM

The last 3 rows once more:

structure	read by	value
Cc1cn([C@H]2C[C@H](N=[N+]=[N-])[C@@H](CO)O2)c(=O)[nH]c1=O		1871 µM
O=C1OC2C(COC(=O)c3cc(O)c(O)c(O)c3)OC(OC(=O)c3cc(O)c(O)c(O)c3)C(OC(=O)c3cc(O)c(O)c4c3[C@@H]3C1=CC(=O)C(O)(O)C3(O)O4)C2OC(=O)c1cc(O)c(O)c(O)c1		40 µM
CC(C)[C@@H](NC(=O)C[C@@H]1O[C@@H]1[C@H](Cc1ccccc1)NC(=O)[C@@H](NC(=O)OCc1ccncc1)C(C)(C)S(C)(=O)=O)c1ccccc1		>100 µM